PubChem BioAssay AID624099 | ICCB-Longwood – 2012
Screen: 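Human genes that papillomavirus E2 requires to repress the HPV18 LCR promoter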 (primary screen). System: human C33A cervical carcinoma cells (HPV-negative) stably expressing BPV1 E2 and an HPV18 LCR luciferase reporter. Reagents: siRNA pool against human genes, 40 nM. Duration: 72 h. Measured: 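HPV18 LCR reporter light per well, converted to plate-wise z-scores that exclude control wells, and averaged over triplicate plates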. Scale: mean z-score and z-score: higher = stronger reporter signal, weaker E2 silencing. Call rule: 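Mean z ≥ 2 together with z ≥ 2 in two or more of the three replicates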.
The whole screen tested about 21,000 reagents; shown is an unselected part. 497 of them (2.4%) count as active. 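Higher z means weaker E2 silencing; only reporter increases were scored, and knock-downs that hurt cell survival may mask genuine repressor factors.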 Unmarked entries are inactive.

| gene symbol | mean z-score | z-score, replicate A | z-score, replicate B | z-score, replicate C |
| --- | --- | --- | --- | --- |
| ANKS1B (GeneID 56899) | 0.17 | 0.04 | 0.09 | 0.38 |
| CFAP97 (GeneID 57587) | -0.56 | -0.83 | -0.55 | -0.3 |
| INSL5 (GeneID 10022) | 1.19 | 0.78 | 1.22 | 1.55 |
| STON1-GTF2A1L (GeneID 286749) | 2.05 (active) | 1.48 | 2.1 | 2.58 |
| DYNLRB1 (GeneID 83658) | 1.11 | 1.34 | 0.9 | 1.07 |
| ROPN1L (GeneID 83853) | 1.43 | 1.63 | 1.42 | 1.25 |
| SMIM13 (GeneID 221710) | 0.98 | 0.71 | 1.25 | 0.99 |
| CCDC40 (GeneID 55036) | -0.33 | -0.42 | -0.15 | -0.42 |
| LOC401085 (retired record) (GeneID 401085) | -0.35 | -0.12 | -0.3 | -0.64 |
| FCAR (GeneID 2204) | 0.51 | 0.41 | 0.63 | 0.49 |
| DEFB104A (GeneID 140596) | 0.51 | 0.36 | 0.55 | 0.63 |
| PIGV (GeneID 55650) | -0.25 | -0.46 | -0.25 | -0.05 |
| FAM201A (GeneID 158228) | -0.87 | -0.43 | -1.07 | -1.11 |
| KRTAP22-1 (GeneID 337979) | -0.84 | -0.54 | -1.07 | -0.91 |
| ZNF709 (GeneID 163051) | 1.55 | 1.6 | 1.02 | 2.03 |
| WDR17 (GeneID 116966) | 0.02 | 0.3 | 0.09 | -0.32 |
| RPE65 (GeneID 6121) | 0.05 | 0.08 | -0.13 | 0.19 |
| TRIM43 (GeneID 129868) | 0.55 | 0.64 | 0.44 | 0.57 |
| DCAF12L2 (GeneID 340578) | 0.03 | 0.11 | -0.05 | 0.03 |
| AMOTL2 (GeneID 51421) | -0.57 | -0.27 | -0.79 | -0.65 |
| CRAT (GeneID 1384) | -1 | -1.02 | -0.89 | -1.08 |
| RNASE11-AS1 (GeneID 254028) | -0.66 | -0.52 | -1.15 | -0.3 |
| LOC389039 (retired record) (GeneID 389039) | -0.71 | -0.8 | -1.2 | -0.13 |
| VPS8 (GeneID 23355) | 0.02 | -0.09 | 0.23 | -0.08 |
| PCDH9 (GeneID 5101) | -0.32 | -0.07 | -0.24 | -0.65 |
| CLK1 (GeneID 1195) | 0.26 | 0.54 | -0.28 | 0.53 |
| BCL2L2 (GeneID 599) | -0.22 | -0.38 | -0.13 | -0.16 |
| SLC15A4 (GeneID 121260) | 0.03 | -0.16 | 0.41 | -0.15 |
| RB1 (GeneID 5925) | -1.18 | -1.16 | -1.08 | -1.31 |
| UGT2B28 (GeneID 54490) | 0.17 | -0.29 | 0.22 | 0.59 |
| ILF2 (GeneID 3608) | 1.36 | 1.5 | 1.47 | 1.12 |
| HNRNPA1L2 (GeneID 144983) | 0.71 | 1.41 | 0.31 | 0.4 |
| XPO5 (GeneID 57510) | -1.29 | -1.44 | -1.2 | -1.22 |
| LRRC30 (GeneID 339291) | 0.07 | -0.39 | 0.14 | 0.47 |
| CWF19L2 (GeneID 143884) | 0.54 | 0.76 | 0.73 | 0.14 |
| LOC642355 (GeneID 642355) | 0.76 | 0.79 | 0.79 | 0.71 |
| ADAT3 (GeneID 113179) | 1.3 | 0.85 | 1.61 | 1.46 |
| EIF2B2 (GeneID 8892) | -1.62 | -1.49 | -1.76 | -1.6 |
| RHOXF2 (GeneID 84528) | -0.09 | -0.17 | 0.26 | -0.36 |

Part of the list above in another layout.
{"gene symbol": "LOC401085 (retired record) (GeneID 401085)", "mean z-score": -0.35, "z-score, replicate A": -0.12, "z-score, replicate B": -0.3, "z-score, replicate C": -0.64}
{"gene symbol": "FCAR (GeneID 2204)", "mean z-score": 0.51, "z-score, replicate A": 0.41, "z-score, replicate B": 0.63, "z-score, replicate C": 0.49}
{"gene symbol": "DEFB104A (GeneID 140596)", "mean z-score": 0.51, "z-score, replicate A": 0.36, "z-score, replicate B": 0.55, "z-score, replicate C": 0.63}
{"gene symbol": "PIGV (GeneID 55650)", "mean z-score": -0.25, "z-score, replicate A": -0.46, "z-score, replicate B": -0.25, "z-score, replicate C": -0.05}
{"gene symbol": "FAM201A (GeneID 158228)", "mean z-score": -0.87, "z-score, replicate A": -0.43, "z-score, replicate B": -1.07, "z-score, replicate C": -1.11}
{"gene symbol": "KRTAP22-1 (GeneID 337979)", "mean z-score": -0.84, "z-score, replicate A": -0.54, "z-score, replicate B": -1.07, "z-score, replicate C": -0.91}
